Publication PMC10178204 (International Journal of Molecular Sciences, 2023)

Test: general procedure: peptide synthesis; preloaded 2-chlorotrityl resin (Lol analogs); rink amide resin (C-terminal amides)
Conditions: whole synthesis, UV 220 nm

Substance | final HPLC purity
1-Oct-Aib-Lys-Lys-Leu-Leu-NH2 | Purity=98%
1-Oct-Lys-Leu-Aib-Leu-NH2 | Purity=92%
1-Oct-Leu-Lys-Aib-Leu-NH2 | Purity=98%
1-Oct-Aib-Lys-Leu-Leu-NH2 | Purity=95%
1-Oct-Leu-Aib-Lys-Leu-NH2 | Purity=94%
1-Oct-Leu-Aib-Lys-Ile-NH2 | Purity 91%
